This data set concerns HIV-1 NL4-3 viral clone expressing Renilla luciferase. It counts as cell-based. The conditions noted are these: ratio of CC50 over EC50. As for the experimental part: Protocol for MT-2 Spread Assay
The present assay was used to screen candidate antiviral compounds by quantification of virus spread and production over several rounds of infection in vitro. MT-2, a HIV-1 permissive human T-cell line, was seeded in microtiter plates and was simultaneously treated with serially diluted compound and inoculated with a HIV-1 NL4-3 viral clone engineered to express Renilla luciferase in place of Net Following treatment, the culture was incubated for 96 hours. After the incubation, media was collected and used to estimate relative infectivity on the indicator cell line, TZM-bl. Additionally, viral spread was quantified by measuring luciferase activity via a commercially available luciferase substrate. In parallel, MT-2 cells were seeded and inoculated with mock virus in the presence of serially diluted compound. Compound toxicity was quantified 96 hours after treatment with AlamarBlue.
MT-2 (NIH Aids reagent program 237) cells were grown and maintained in an incubator at 37° C. with 5% CO2 using a basal medium of RPMI-1640 supplemented with 10% FBS. Cells were seeded in 100 μl at 2×10^4 cells/well in white walled 96-well microtiter plates. Candidate compounds were 3-fold serially diluted in the appropriate solvent. Solvent without compound was used as a no drug reference. Cells were inoculated at a multiplicity of 0.027 with an HIV-1 NL4-3 virus stock engineered to express Renilla luciferase in place of Net Diluted virus stock was first added to serially diluted compound. Compound and virus were delivered to cells in an equal volume (100 μl) and treated cultures were returned to the incubator for 96 hours. In parallel, plates for cytotoxicity estimates were prepared in the same way except cells were plated in clear walled 96-well microtiter plates and were mock infected.
At 96 hours post infection, 100 μl virus containing culture supernatant was collected from the treated and infected cultures and serially diluted in DMEM supplemented with 10% FBS, 1% sodium pyruvate, and 20 μg/ml DEAE dextran. One day prior, TZM-bl (ATCC PTA-5659) were cultured in basal medium of DMEM supplemented with 10% FBS and 1% sodium pyruvate and seeded at 7.5×10^3 cells/well in black walled 96-well microtiter plates. Diluted virus containing culture supernatant was transferred to TZM-bl cultures and incubated for 48 hours at 37° C. with 5% CO2. Infected TZM-bl cultures were fixed for 5 minutes with a 1% formaldehyde/0.2% gluteraldehyde/PBS solution then washed three times with PBS. Fixed cultures were incubated at 37° C. for 25 minutes with a 200 μg/ml MUG (4-Methylumbelliferyl β-D-[…])/DMEM solution. The reaction was stopped with an equal volume of 1M sodium carbonate and read at 360, 449 nm on fluorescence plate reader (Biotek).
At 96 hours post infection, 100 μl of culture supernatant was removed from the treated and infected cultures and EnduRen live cell substrate (Promega) was added at a final concentration 1.3 μg/ml. Cells were incubated for 1.5 hours at 37° C. with 5% CO2 then read on a luminescence plate reader (Biotek).
For all assays, data was imported into Accelrys Assay Explorer 3.3. In Assay Explorer, % inhibition (antiviral or cytotoxicity) was calculated using the solvent control as a reference by the following equation: 1−(SignalCompound/SignalReference). The % Inhibition and compound concentration data was fitted using the following 4-parameter logistic model (Assay Explorer model 42):
[formula] where X is compound concentration, Y is % inhibition, D is the maximum % Inhibition (constrained to 100%), C is IC50 value or inflection point, B is the hill slope, and A is the minimum % inhibition (constrained to 0%). The IC50 value is reported as the EC50 or CC50 depending on the assay endpoint. EC50 represents the effective concentration at which virus replication is inhibited by 50 percent. CC50 represents the concentration that results in the death of 50 percent of the host cells. […]
Consider `CCCCOc1ccc(/C=C/C2NCCc3cc(OCc4ccccc4)c(OC)cc32)cc1OC` (centres unmarked) [BD, 6-Benzyloxy-1-[(E)-2-(4-butoxy-3-methoxy-phenyl)vinyl]-7-methoxy-1,2,3,4-tetrahydroisoquinoline], for which the SI is on record as 8.9.

`CCCCOc1cc(/C=C/C2NCCc3cc(OCc4ccccc4)c(OC)cc32)ccc1OC` (centres unmarked) [BE, 6-Benzyloxy-1-[(E)-2-(3-butoxy-4-methoxy-phenyl)vinyl]-7-methoxy-1,2,3,4-tetrahydroisoquinoline]: the SI stood at 37.6. Then `COc1ccc(/C=C/C2NCCc3cc(OCc4ccccc4)c(OC)cc32)cc1F` (centres unmarked) [BF], with 32.85; and `COc1cc2c(cc1OCc1ccccc1)CCNC2/C=C/c1ccc(N(C)C)cc1C` (centres unmarked) [BG, 4-[(E)-2-(6-benzyloxy-7-methoxy-1,2,3,4-tetrahydroisoquinolin-1-yl)vinyl]-N,N,3-trimethyl-aniline], with 2.69. In the case of `COc1cc2c(cc1OCc1ccccc1)CCNC2/C=C/c1cc(OC(F)(F)F)ccc1C` (centres unmarked) [BH, 6-Benzyloxy-7-methoxy-1-[(E)-2-[2-methyl-5-(trifluoromethoxy)phenyl]vinyl]-1,2,3,4-tetrahydroisoquinoline], the SI stood at 2.75. Consider `COc1cc2c(cc1OCc1ccccc1)CCNC2/C=C/c1ccccc1` (centres unmarked) [BI, 6-Benzyloxy-7-methoxy-1-[(E)-styryl]-1,2,3,4-tetrahydroisoquinoline], for which the SI is recorded as 4.5.

With `COc1ccc(/C=C/C2NCCc3cc(OCc4ccccc4)c(OC)cc32)cc1` (centres unmarked) [BJ, 6-Benzyloxy-7-methoxy-1-[(E)-2-(4-methoxyphenyl)vinyl]-1,2,3,4-tetrahydroisoquinoline], the SI amounted to 43.54. Next, `COc1cc2c(cc1OCc1ccccc1)CCNC2/C=C/c1cccc(OCc2ccccc2)c1` (centres unmarked) [BK, 6-Benzyloxy-1-[(E)-2-(3-benzyloxyphenyl)vinyl]-7-methoxy-1,2,3,4-tetrahydroisoquinoline]: 15.4; `CCCCOc1cc(/C=C/C2NCCc3cc(OCc4ccccc4)c(OC)cc32)c(C)cc1OC` (centres unmarked) [BL, 6-Benzyloxy-1-[(E)-2-(5-butoxy-4-methoxy-2-methyl-phenyl)vinyl]-7-methoxy-1,2,3,4-tetrahydroisoquinoline]: 21.2. For `COc1cc2c(cc1OCc1ccccc1)CCNC2/C=C/c1ccc2c(c1)CCO2` (centres unmarked) [BM, 6-Benzyloxy-1-[(E)-2-(2,3-dihydrobenzofuran-5-yl)vinyl]-7-methoxy-1,2,3,4-tetrahydroisoquinoline], the SI turned out to be 139.8. With `COc1cc2c(cc1OCc1ccccc1)CCNC2/C=C/c1ccc2occc2c1` (centres unmarked) [BN, 1-[(E)-2-(benzofuran-5-yl)vinyl]-6-benzyloxy-7-methoxy-1,2,3,4-tetrahydroisoquinoline], the SI was determined as 24.8. With `COc1cc(C)c(/C=C/C2NCCc3cc(OCc4ccccc4)c(OC)cc32)cc1OCCCC(=O)O` (centres unmarked) [BO, 4-[5-[(E)-2-(B-benzyloxy-7-methoxy-1,2,3,4-tetrahydroisoquinolin-1-yl)vinyl]-2-methoxy-4-methyl-phenoxy]butanoic acid], the SI is on record as 38.3.

With `COc1cc(F)c(/C=C/C2NCCc3cc(OCc4ccccc4)c(OC)cc32)cc1OC` (centres unmarked) [BP, 6-Benzyloxy-1-[(E)-2-(2-fluoro-4,5-dimethoxy-phenyl)vinyl]-7-methoxy-1,2,3,4-tetrahydroisoquinoline], the SI is recorded as 2.76. Next, `COc1ccc(/C=C/C2NCCc3cc(OCc4ccccc4)c(OC)cc32)cc1OC` (centres unmarked) [BQ, 6-Benzyloxy-1-[(E)-2-(3,4-dimethoxyphenyl)vinyl]-7-methoxy-1,2,3,4-tetrahydroisoquinoline]: 43.5; `COc1ccc(/C=C/C2NCCc3cc(OCc4ccccc4)c(OC)cc32)c(F)c1` (centres unmarked) [BR, 6-Benzyloxy-1-[(E)-2-(2-fluoro-4-methoxy-phenyl)vinyl]-7-methoxy-1,2,3,4-tetrahydroisoquinoline]: 8.77.

As for `COc1cc2c(cc1OCc1ccccc1)CCNC2/C=C/c1sccc1C` (centres unmarked) [BS, 6-Benzyloxy-7-methoxy-1-[(E)-2-(3-methyl-2-thienyl)vinyl]-1,2,3,4-tetrahydroisoquinoline], the SI is reported as 3.94. For the compound `COc1cc2c(cc1OCc1ccccc1)CCNC2/C=C/c1ccc2cn[nH]c2c1` (centres unmarked) [BT, 6-Benzyloxy-1-[(E)-2-(1H-indazol-6-yl)vinyl]-7-methoxy-1,2,3,4-tetrahydroisoquinoline], the SI was 13.02. Then `COc1cc(F)c(/C=C/C2NCCc3cc(OCc4ccccc4)c(OC)cc32)c(F)c1` (centres unmarked) [BU, 6-Benzyloxy-1-[(E)-2-(2,6-difluoro-4-methoxy-phenyl)vinyl]-7-methoxy-1,2,3,4-tetrahydroisoquinoline], with 10.4; and `COc1cc(C)c(/C=C/C2NCCc3cc(OCc4ccccc4)c(OC)cc32)cc1C` (centres unmarked) [BV, 6-Benzyloxy-7-methoxy-1-[(E)-2-(4-methoxy-2,5-dimethyl-phenyl)vinyl]-1,2,3,4-tetrahydroisoquinoline], with 8.7; and `COc1cc2c(cc1OCc1ccccc1)CCNC2/C=C/c1cc(C(C)C)c(OC)cc1C` (centres unmarked) [BW, 6-Benzyloxy-1-[(E)-2-(5-isopropyl-4-methoxy-2-methyl-phenyl)vinyl]-7-methoxy-1,2,3,4-tetrahydroisoquinoline], with 2.2. Next, `COc1cc2c(cc1OCc1ccccc1)CCNC2/C=C/c1cc(OCC(C)(C)C)c(OC)cc1C` (centres unmarked) [BX, 6-Benzyloxy-1-[(E)-2-[5-(2,2-dimethylpropoxy)-4-methoxy-2-methyl-phenyl]vinyl]-7-methoxy-1,2,3,4-tetrahydroisoquinoline]: 9.71; `COc1cc2c(cc1OCc1ccccc1)CCNC2/C=C/c1cc(OCC2CCNCC2)c(OC)cc1C` (centres unmarked) [BY, 6-Benzyloxy-7-methoxy-1-[(E)-2-[4-methoxy-2-methyl-5-(4-piperidylmethoxy)phenyl]vinyl]-1,2,3,4-tetrahydroisoquinoline]: 5. Next, `COc1cc2c(cc1OCc1ccccc1)CCNC2/C=C/c1ccc(S(C)(=O)=O)cc1` (centres unmarked) [BZ, 6-Benzyloxy-7-methoxy-1-[(E)-2-(4-methylsulfonylphenyl)vinyl]-1,2,3,4-tetrahydroisoquinoline]: 1; `COc1ccc(/C=C/C2NCCc3cc(OCc4ccccc4)c(OC)cc32)c(OC)n1` (centres unmarked) [CA, 6-Benzyloxy-1-[(E)-2-(2,6-dimethoxy-3-pyridyl)vinyl]-7-methoxy-1,2,3,4-tetrahydroisoquinoline]: 23.9.

Take `COc1cc2c(cc1OCc1ccccc1)CCNC2/C=C/c1ccc2c(c1)CCCO2` (centres unmarked) [CB, 6-Benzyloxy-1-[(E)-2-chroman-6-ylvinyl]-7-methoxy-1,2,3,4-tetrahydroisoquinoline]: the SI came to 3.5. Then `COc1cc2c(cc1OCc1ccccc1)CCNC2/C=C/c1c(C)ccc2c1OCCC2` (centres unmarked) [CC, 6-Benzyloxy-7-methoxy-1-[(E)-2-(7-methylchroman-8-yl)vinyl]-1,2,3,4-tetrahydroisoquinoline], with 4.6; and `COc1cc(C)c(/C=C/C2NCCc3cc(OCc4ccccc4)c(OC)cc32)cc1OCCCCN=[N+]=[N-]` (centres unmarked) [CD, 1-[(E)-2-[5-(4-azidobutoxy)-4-methoxy-2-methyl-phenyl]vinyl]-6-benzyloxy-7-methoxy-1,2,3,4-tetrahydroisoquinoline], with 18.5; and `COc1cc2c(cc1OCc1ccccc1)CCNC2/C=C/c1cc2c(cc1C)OCCC2` (centres unmarked) [CE, 6-Benzyloxy-7-methoxy-1-[(E)-2-(7-methylchroman-6-yl)vinyl]-1,2,3,4-tetrahydroisoquinoline], with 38.9.

Take `COc1cc2c(cc1OCc1ccccc1)CCNC2/C=C/c1cccc2c1OCCC2` (centres unmarked) [CF, 6-Benzyloxy-1-[(E)-2-chroman-8-ylvinyl]-7-methoxy-1,2,3,4-tetrahydroisoquinoline]: the SI came to 18.6.
